Like-named read-outs stand apart in the source and are kept apart here.
Test system: SARS-CoV-2
Assay: Anti-SARS-CoV-2 activity, detection of viral genomes by RT-qPCR on infected cells
[1] = Table 3, RT-qPCR of viral genomes, Vero E6 cells infected with SARS-CoV-2
[2] = Table 2, RT-qPCR of viral genomes, Vero E6 cells infected with SARS-CoV-2
[3] = read-out: IC50 (μM) SARS-CoV-2, Table 3, RT-qPCR of viral genomes, Vero E6 cells infected with SARS-CoV-2
[4] = read-out: IC50 value, anti-SARS-CoV-2 assay, Vero E6 cells

Structure (SMILES)	IC50 (μM) SARS-CoV-2 [1]	IC50 (μM) SARS-CoV-2 [2]	further results
O=C1COc2cccnc2N1CCCN1CCN(C2CCCCC2)CC1	NOT ACTIVE		
COc1cc2c(cc1OC)CN(CCCN1CCc3ccccc3C1=O)CC2		NOT ACTIVE	
COc1cc2c(cc1OC)CN(CCCN1CCc3c(OC)cccc3C1=O)CC2		NOT ACTIVE	
COc1cc2c(cc1OC)CN(CCCN1CCc3cc(F)ccc3C1=O)CC2		NOT ACTIVE	
c1ccc([C@H]2CC[C@H](CCCN3CCN(C4CCCCC4)CC3)CC2)cc1 (relative stereo)	NOT ACTIVE		
C1CCC(CCCN2CCN(C3CCCCC3)CC2)CC1	NOT ACTIVE		
c1ccc([C@H]2CC[C@@H](CCCN3CCN(C4CCCCC4)CC3)CC2)cc1 (relative stereo)	NOT ACTIVE		
O=C1c2ccccc2CCN1CCCN1CCN(C2CCCCC2)CC1	NOT ACTIVE		
COc1ccc([C@H]2CC[C@@H](CCCN3CCN(C4CCCCC4)CC3)CC2)cc1 (relative stereo)			IC50 [3]: 2.35 µM; IC50 [4]: 2 µM
COc1ccc2c(CCCN3CCCC(C)(C)C3)cccc2c1			IC50 (μM) SARS-CoV-2 (Table 4, RT-qPCR of viral genomes, Vero E6 cells infected with SARS-CoV-2): NOT ACTIVE; anti-SARS-CoV-2 activity in words (Vero E6 cells): did not demonstrate any antiviral effect
COc1ccc([C@H]2CC[C@H](CCCN3CCN(C4CCCCC4)CC3)CC2)cc1 (relative stereo)			IC50 [3]: 2.31 µM; IC50 [4]: 2 µM
COc1cc2c(cc1OC)CN(CCCN1CCCc3c(OC)cccc31)CC2		NOT ACTIVE	

Source: publication PMC10406941 (Scientific Reports, 2023)
